A mixed list of measured activities; the numbers were collected in NIAID ChemDB.

Shared fields: whole-cell or culture tests; agent: Mycobacterium tuberculosis

Rows are shuffled and stem from different studies. MIC50, MIC90 and the like: level of inhibition, or share of isolates inhibited. Percent inhibition refers to the dose given; in toxicity tests it is the harm to the cells. MIC bound comes from a single tested concentration. Blank or dashed fields: not listed here. ECn is the concentration giving n% inhibition of infection, replication or growth.

structure,cells,dose,read-out,strain or isolate,read by,value
CN(C)/C=N/S(=O)(=O)c1nn2c(/C=N/N=C(N)N)c(-c3ccc(Cl)cc3)nc2s1,-,6.25 µg/mL,inhibition,H37Rv,-,58%
O=C(NN1C(=O)c2c(F)c(F)c(F)c(F)c2C1=O)c1ccc(-n2cccc2)cc1,-,-,MIC,H37Rv,resazurin,0.2 µg/mL
COc1cc(N=C(N)N)ccc1-c1ccc(-c2ccc(N=C(N)N)cc2OC)o1,-,12.5 µg/mL,inhibition,-,-,0%
CC(C)=CCC/C(C)=C/CC/C(C)=C/CO,-,-,MIC,H37Rv,-,8 µg/mL
Cc1ccc2c(c1)C(=O)N(NC(=O)c1ccc(-n3c(C)ccc3C)cc1)C2=O,-,-,MIC,H37Rv,resazurin,6.25 µM
CN(C)CCC(O)(c1cccc2ccccc12)C(c1ccccc1)c1cc2cc(Br)ccc2nc1N1CCOCC1,-,-,MIC90,H37Rv,-,2.43 µg/mL
O=C(Nc1ccc(F)cc1)c1cnccn1,-,-,MIC,ATCC 27294,resazurin,>100 µg/mL
C=C1C(=O)OC2CC3(C)CC(O)CC(=C)C3CC12,-,-,MIC,H37Rv,-,64 µg/mL
Oc1ccc(-c2cn3nc(C(F)(F)F)sc3n2)cc1,-,-,MIC,H37Rv,-,50 µg/mL
Nc1nc(N)c2nn(-c3ccc(C(=O)O)cc3)nc2n1,-,6.25 µg/mL,inhibition,H37Rv,BACTEC,0%
O=C(Nc1cccc([N+](=O)[O-])c1)c1cnccn1,-,-,MIC,ATCC 27294,resazurin,>100 µg/mL
C[C@H](c1ccccc1)N1C/C(=C\c2ccccc2Cl)[C@@]2(ON=C(c3ccc(Cl)cc3)O2)[C@@]2(C1)ON=C(c1ccc(Cl)cc1)[C@@H]2c1ccccc1Cl,-,-,MIC,H37Rv,-,4.14 µM
COc1ccc(-c2cn3nc(C(F)(F)F)sc3n2)cc1,-,-,MIC,H37Rv,-,>6.25 µg/mL
O=C(Nc1ccccc1C(F)(F)F)c1cnccn1,-,-,MIC,ATCC 27294,resazurin,>100 µg/mL
CN1C(=O)OC(c2ccc(Cl)cc2)C1=O,-,12.5 µg/mL,inhibition,H37Rv,BACTEC,0%
O=c1cc(-c2cccc(-c3cccc4c(=O)cc(-c5ccccc5)oc34)c2)oc2ccccc12,-,-,EC50,-,-,>12.5 µg/mL
COc1nc2ccc(Br)cc2cc1C(c1ccccc1)C(O)(CCCN1CCOCC1)c1ccc2ccccc2c1,-,-,MIC90,H37Rv,-,61.16 µg/mL
C/C(=C/CO)CCC[C@H](C)CCC[C@H](C)CCCC(C)C,-,-,MIC,H37Rv,-,2 µg/mL
FC(F)(F)c1nn2cc(-c3ccc(Br)cc3)nc2s1,-,-,MIC,H37Rv,-,50 µg/mL
C=C(C)[C@@H]1CC[C@]2(C(=O)O)CC[C@]3(C)[C@H](CC[C@@H]4[C@@]5(C)CC[C@@H](O)C(C)(C)[C@@H]5CC[C@]43C)[C@@H]12,-,-,MIC,H37Rv,-,64 µM
O=C(Nc1ccccc1)c1cnccn1,-,-,MIC,ATCC 27294,resazurin,>100 µg/mL
C=C[C@]1(C)C=C2CC[C@@H]3[C@](C)(CCC[C@@]3(C)C(=O)O)[C@H]2CC1,-,-,MIC,-,-,15 µg/mL
COc1nc2ccc(Br)cc2cc1C(c1ccccc1)C(O)(CCCN1CCOCC1)c1cccc2ccccc12,-,-,MIC90,H37Rv,-,61.16 µg/mL
C[C@@H]1CC[C@]2(C(=O)O)CC[C@]3(C)C(=CC[C@@H]4[C@@]5(C)C[C@@H](O)[C@H](O)[C@@](C)(CO)[C@@H]5CC[C@]43C)[C@@H]2[C@]1(C)O,-,-,MIC,H37Rv,-,>128 µM
Cc1ccc([C@H]2C(c3ccccc3)=NO[C@@]23CN([C@H](C)c2ccccc2)C/C(=C\c2cccc(C)c2)[C@@]32ON=C(c3ccccc3)O2)cc1,-,-,MIC,H37Rv,-,2.42 µM
Cc1ccc(C)n1-c1ccc(C(=O)NN2C(=O)c3cc(Cl)c(Cl)cc3C2=O)cc1,-,-,MIC,H37Rv,resazurin,0.8 µg/mL
CC[C@H]1OC(=O)[C@H](C)[C@@H](O[C@H]2C[C@@](C)(OC)[C@@H](OC(C)=O)[C@H](C)O2)[C@H](C)[C@@H](O[C@@H]2O[C@H](C)C[C@H](N(C)C)[C@H]2O)C(C)(O)C[C@@H](C)/C(=N\OCCCC2CCCCC2)[C@H](C)[C@@H](O)[C@]1(C)O,-,-,MIC,4 (MDR),-,3.13 µg/mL
COc1ccc2c(c1)c1c(C)c3cnccc3c(C)c1n2CC1CO1,-,-,MIC bound,H37Rv,resazurin,<6.25 µg/mL
COc1cc(-c2cn3nc(S(N)(=O)=O)sc3n2)cc(OC)c1OC,-,-,MIC,H37Rv,-,>6.25 µg/mL
CC1=C(Cl)C[C@@H](/C(C)=C\Cl)O[C@@]1(O)C(Br)Br,-,-,MIC bound,H37Rv,BACTEC,>12.5 µg/mL
O=c1cc(-c2ccc(Oc3c(-c4cccc([N+](=O)[O-])c4)oc4ccccc4c3=O)cc2)oc2ccccc12,-,-,MIC,-,-,>12.5 µg/mL
C[C@]1(COc2ccc(-n3cc(COc4ccc(OC(F)(F)F)cc4)nn3)cc2)Cn2cc([N+](=O)[O-])nc2O1,-,-,MIC100,H37Rv,visual reading / absorbance,0.12 µg/mL
C=C[C@@](C)(O)CC/C=C(/C)CCC=C(C)C,-,-,MIC,H37Rv,-,32 µg/mL
CC(=O)Oc1ccc([C@@H]2CC(=O)c3c(cc(OC(C)=O)c(-c4c(OC(C)=O)cc5c(c4OC(C)=O)C(=O)C[C@@H](c4ccc(OC(C)=O)cc4)O5)c3OC(C)=O)O2)cc1,-,-,MIC,-,-,>12.5 µg/mL
Cc1ccc(NCC(=O)NN)cc1,-,12.5 µg/mL,inhibition,H37Rv,BACTEC,13%
[N-]=[N+]=[N-].[Na+],-,-,MIC,H37Rv,-,20.32 µg/mL
COc1nc2ccc(Br)cc2cc1C(c1ccccc1)C(O)(CCCCN(C)C)c1cccc2ccccc12,-,-,MIC90,H37Rv,-,9.25 µg/mL
NC(=O)C1CCCN1C(=O)/C=C/c1ccccc1,-,12.5 µg/mL,inhibition,H37Rv,BACTEC,-19%
CCCCCC[C@]1(C)Cn2cc([N+](=O)[O-])nc2O1,-,-,MIC100,H37Rv,visual reading / absorbance,0.015 µg/mL
OC(c1cc(-c2ccccc2)nc2cc(Cl)ccc12)C1CCCCN1,VERO,-,MIC,H37Rv,-,3.13 µg/mL
Cc1ccccc1NC(=O)c1cnccn1,-,-,MIC,ATCC 27294,resazurin,100 µg/mL
COc1nc2ccc(Br)cc2cc1C(c1ccccc1)C(O)(CCN(C)C)c1cccc2c1CCCC2,-,-,MIC90,H37Rv,-,44.45 µg/mL
CC(C)=CCCC(C)CCO,-,-,MIC,H37Rv,-,64 µg/mL
CC1=C(N)C(=O)C2=C(C1=O)N1C[C@H]3[C@H](N3C)[C@]1(O)[C@@H]2COC(N)=O,-,-,MIC,PZA-R,-,0.4 µg/mL
O=C(Nc1ccc([N+](=O)[O-])cc1)c1cnccn1,-,-,MIC,ATCC 27294,resazurin,>100 µg/mL
C[N+]1=C2C=C(O)C(=O)C=C2C(O)C1,-,-,MIC bound,H37Rv,BACTEC,>12.5 µg/mL
COc1cc(/C=N/NC(=O)c2ccc(F)cc2)ccc1O,-,-,EC50,H37Rv,-,>6.25 µg/mL
COc1ccc(-c2cc(=O)c3c(OC)cc(OC)c([C@H]4C(=O)c5c(OC)cc(OC)cc5O[C@@H]4c4ccc(OC)cc4)c3o2)cc1,-,-,EC50,-,-,<12.5 µg/mL
O=C(N/N=C/c1ccco1)c1ccc(F)cc1,-,6.25 µg/mL,inhibition,H37Rv,-,5%
CCOC(=O)C(=O)NNc1cccc(Cl)n1,-,-,MIC bound,H37Rv,BACTEC,>12.5 µg/mL
O=c1cc(-c2ccc(O)c(-c3c(O)cc(O)c4c(=O)cc(-c5ccc(O)cc5)oc34)c2)oc2cc(O)cc(O)c12,-,-,MIC,-,-,>12.5 µg/mL
Cc1ccc(-c2nc3sc(S(=O)(=O)/N=C/N(C)C)nn3c2/C=N/N=C(N)N)cc1,-,6.25 µg/mL,inhibition,H37Rv,-,43%
CC(/C=N/Nc1ccc([N+](=O)[O-])cn1)=N\Nc1ccc([N+](=O)[O-])cn1,-,12.5 µg/mL,inhibition,H37Rv,BACTEC,16%
CC[C@H](C)N1CCN(c2cc(=O)c3nc4c(oc3c2)c2c(=O)c3c(O)c(C)c5c(c34)=C(O)[C@@](C)(O/C=C/[C@H](OC)[C@@H](C)[C@@H](OC(C)=O)[C@H](C)[C@H](O)[C@H](C)[C@@H](O)[C@@H](C)/C=C/C=C(/C)C(=O)N2)O5)CC1,-,-,MIC90,16 strains (rifampicin-susceptible),-,1.56 µg/mL
C[C@H](c1ccccc1)N1C/C(=C\c2ccccc2Br)[C@@]2(ON=C(c3ccccc3)O2)[C@@]2(C1)ON=C(c1ccccc1)[C@@H]2c1ccccc1Br,-,-,MIC,H37Rv,-,8.06 µM
CCCCCCCCCCCCCCCCOc1ccc(S(=O)(=O)N/N=c2\sc(-c3ccccc3Cl)nn2C)cc1C(=O)O,-,-,MIC bound,H37Rv,resazurin,>6.25 µg/mL
O=C1C[C@@H](c2ccc(O)cc2)Oc2c1c(O)cc(O[C@@H]1O[C@H](CO)[C@@H](O)[C@H](O)[C@H]1O)c2[C@H]1C(=O)c2c(O)cc(O)cc2O[C@@H]1c1ccc(O)cc1,-,-,MIC,-,-,>12.5 µg/mL
O=C(N/N=C/c1ccc([N+](=O)[O-])o1)c1ccc(F)cc1,-,-,MIC,H37Rv,-,>6.25 µg/mL
C[C@H](c1ccccc1)N1C/C(=C\c2ccc(Cl)cc2Cl)C(=O)/C(=C/c2ccc(Cl)cc2Cl)C1,-,-,MIC,H37Rv,-,6.05 µM
COc1nc2ccc(Br)cc2cc1C(c1ccccc1)C(O)(CCN(C)C)c1cccc(C(F)(F)F)c1,-,-,MIC90,H37Rv,-,0.36 µg/mL
Cc1cc2nc(C/C(=N\O)c3ccncc3)c(C/C(=N\O)c3ccncc3)nc2cc1C,-,-,MIC bound,H37Rv,BACTEC,>12.5 µg/mL
C[C@H]1[C@H](C)CC[C@]2(CO)CC[C@]3(C)C(=CC[C@@H]4[C@@]5(C)CC[C@H](O)C(C)(C)[C@@H]5CC[C@]43C)[C@H]12,-,-,MIC,H37Rv,-,32 µM
COC(=O)C1=C(C(=O)OC)C2OC1C(COC(=O)NC1CCCCC1)=C2COC(=O)NC1CCCCC1,-,12.5 µg/mL,inhibition,H37Rv,BACTEC,10%
NNC(=O)c1ccncc1,-,-,MIC,H37Rv,-,0.428 µg/mL
CCc1c(O)n(Cc2ccccc2)c(=S)n(Cc2nc3ccccc3[nH]2)c1=O,-,-,MIC bound,H37Rv,BACTEC,>12.5 µg/mL
Cc1ccc(C)n1-c1nc(-c2ccc(Br)cc2)cs1,-,-,MIC,H37Rv,resazurin,0.4 µg/mL
O=C1CS(=O)(=O)[C@H](c2ccccn2)N1CCN1C(=O)CS(=O)(=O)[C@H]1c1ccccn1,-,12.5 µg/mL,inhibition,H37Rv,BACTEC,0%
CC(C)c1ccc(C2=NO[C@@]3(O2)C(=Cc2cccc4ccccc24)CN([C@H](C)c2ccccc2)CC32ON=C(c3ccc(C(C)C)cc3)[C@H]2c2cccc3ccccc23)cc1,-,-,MIC,H37Rv,-,15.59 µM
OC[C@@H](O)[C@@H](O)[C@H](O)C(/C=N/Nc1ccccc1)=N/Nc1ccccc1,-,-,MIC bound,H37Rv,-,>6.25 µg/mL
Cc1c(OCC(F)(F)F)ccnc1CSc1nc2ccccc2[nH]1,-,-,MIC90,Erdman,resazurin,1.21 µM
COC(=O)c1nc2c(n1NC(C)=O)CCCC2,-,-,MIC bound,H37Rv,BACTEC,>12.5 µg/mL
C[C@H](c1ccccc1)N1C/C(=C/c2ccc(Cl)cc2Cl)[C@]2(ON=C(c3ccccc3)O2)C2(C1)ON=C(c1ccccc1)[C@H]2c1ccc(Cl)cc1Cl,-,-,MIC,MDR-TB,-,1.03 µM
COC(=O)C1c2cc3c(c(O)c2C(O)CC1(C)O)C(=O)c1c(O)cc2c(c1C3=O)OC1OC2(C)C(O)C(N(C)C)C1O,-,-,MIC,H37Rv,BACTEC,≥12.8 µg/mL
CCCN1CCN(c2cc(=O)c3nc4c(oc3c2)c2c(=O)c3c(O)c(C)c5c(c34)=C(O)[C@@](C)(O/C=C/[C@H](OC)[C@@H](C)[C@@H](OC(C)=O)[C@H](C)[C@H](O)[C@H](C)[C@@H](O)[C@@H](C)/C=C/C=C(/C)C(=O)N2)O5)CC1,-,-,MIC50,6 strains (rifampicin-resistant),-,≤0.0125 µg/mL
CCN(CC)C(=S)[S][Bi]([S]C(=S)N(CC)CC)[S]C(=S)N(CC)CC,-,-,MIC,PAS-R,-,1.6 µg/mL
O=C(N/N=C/Cc1ccccc1)c1ccc(F)cc1,-,-,EC50,H37Rv,-,>6.25 µg/mL